Assay results reported in paper PMC6723440 (Toxins, 2019).

Key:
[1] = human exposure studies to DON; cited from earlier work
[2] = Phase I microsomal incubation (NADPH), LC-HRMS; conditions: incubation of AFB1, phase I

**Q.** For `CC1=C[C@H]2O[C@@H]3[C@H](O)C[C@](C)([C@@]2(CO[C@@H]2O[C@H](C(=O)O)[C@@H](O)[C@H](O)[C@H]2O)[C@H](O)C1=O)[C@]31CO1`, which “predominant species in urine” value [1] is on record?
**A.** 49%

**Q.** For `CC1=C[C@H]2O[C@@H]3[C@H](O[C@@H]4O[C@H](C(=O)O)[C@@H](O)[C@H](O)[C@H]4O)C[C@](C)([C@@]2(CO)[C@H](O)C1=O)[C@]31CO1`, which “predominant species in urine” value [1] is on record?
**A.** 14%

**Q.** For `COc1cc2c(c3oc(=O)c4c(c13)CCC4O)C1C=COC1O2` (stereo not drawn), which “metabolite generated from AFB1” value [2] is on record?
**A.** < 1%
